Measurements reported in PubChem BioAssay AID1259414 (Drosophila RNAi Screening Center, 2018).
The screen tested about 24,000 reagents; shown is an unselected part of those with a known target gene and a result. Over the whole deposit, about 1,210 (5%) are marked active. 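Inactive calls also include excluded dsRNAs with several or no targets, genes unexpressed in JW18, and well A1, regardless of score.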 Entries without a mark were called inactive. The numbers tell different reagents against one gene apart. Names joined by + are all predicted targets of the reagent. No sequences are given here.

Aim: 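Fly genes that alter Wolbachia amount inside host cells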 (primary screen)
System: Drosophila JW18 cells infected with Wolbachia
Knock-down reagent: long dsRNA against Drosophila genes, 0.25 µg dsRNA per well of a 384-well plate
Time to read-out: 5 days
Conditions: cells persistently infected with Wolbachia before knock-down; no added drug
Measurement: 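Automated imaging of bacterial rRNA staining divided by host cell count, reported as plate-normalised robust z-score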
Reading the numbers: Wolbachia per cell robust z: higher = more Wolbachia per host cell than the plate typical
Hit rule: 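Active if absolute robust z reaches 1.5 in two or more of three replicates, leaving out multi- or no-target dsRNAs, genes unexpressed in JW18 and A1 wells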

Gene,dsRNA no.,"Wolbachia per cell robust z, rep 1","Wolbachia per cell robust z, rep 2","Wolbachia per cell robust z, rep 3"
MFS18,1,0.543,-0.468,-1.23
CalpB,1,0.442,-0.0351,0.00371
CalpB,2,-1.86,-1.31,-1.46
MCPH1,1,-0.869,-0.954,0.732
MCPH1,2,-0.521,0.105,-0.28
MCPH1,3,-0.234,0.165,-1.24
MCPH1,4,0.283,-0.00858,0.173
CG42700,1,-1.01,-1.07,-0.389
CG42700,2,1.34,1.03,0.953
CG42700,3,0.299,0.887,1.06
CG3277,1,-2.79,-0.065,0.286
Or85e,1,-1.7,-7.73,-0.0137
CG4069,1,-0.727,-1.64,-0.374
CG14854,1,-0.715,-0.636,0.719
CG11458,1,0.628,0.511,0.672
CG14736,1,-0.927,0.0175,0.145
CG14736,2,-1.05,-1.01,-0.365
Axs + sing,1,0.321,1.18,0.798
Osi2,1,-0.977,-0.0473,-0.185
Osi2,2,0.354,-0.621,-0.382
CG31740,1,-0.435,-0.639,-0.593
CG12535,1,-0.0539,-0.0364,0.0287
CG32407,1,-0.32,0.128,0.736
Cad88C,1,-0.96,-1.5,-1.02
Cad88C,2,-0.853,-1.27,0.287
CG34337,1,0.095,-0.0576,0.511
CG34337,2,0.287,-2.39,0.478
Lamp1,1,0.521,-2.62,0.41
Cyp6u1,1,-0.299,0.727,-1.23
Cyp6u1,2,-0.776,0.24,0.148
CG42810,1,-0.0575,-1.01,0.386
scramb1,1,0.181,-0.00419,-1.7
scramb1,2,0.885,0.647,0.266
scramb1,3,0.254,-1.08,-0.494
RpL9,1,2.7 (active),3.77,4.25
CG2201,1,-6.6,-0.145,-0.176
l(2)05714,1,-0.145,1.23,-0.0437
l(2)05714,2,0.392,0.437,0.86
Muc55B,1,-0.802,-1.32,-1.28
Muc55B,2,1.37,1.04,0.372
Hmr,1,-2.25,1.35,-1.23

Entries listed so far with an active call:
Gene,dsRNA no.,"Wolbachia per cell robust z, rep 1","Wolbachia per cell robust z, rep 2","Wolbachia per cell robust z, rep 3"
RpL9,1,2.7 (active),3.77,4.25

More reagents:
Gene,dsRNA no.,"Wolbachia per cell robust z, rep 1","Wolbachia per cell robust z, rep 2","Wolbachia per cell robust z, rep 3"
Slh,1,-3.25 (active),-5.9,0.599
Slh,2,1.34,0.731,1.19
Slh,3,-3.98,0.703,-0.0033
ple,1,-0.426,0.193,-1.37
Ets65A,1,-7.73,0.629,0.544
Ets65A,2,-0.159,-0.369,0.641
Ets65A,3,0.0732,-0.503,-0.223
CG13581,1,-0.782,-0.502,0.14
Tom7,1,-6.64,-0.551,0.294
Tom7,2,-3.92,-1.28,-0.169
Ada2b,1,0.214,1.01,1.95
Loxl2,1,0.422,-0.267,-1.48
qkr58E-3,1,-0.6,0.381,-5.1
CG42526,1,-0.124,1.39,-0.886
Toll-9,1,0.516,0.376,-0.145
Ugt304A1,1,-0.272,0.0049,0.717
Ugt304A1,2,0.137,-1.08,-1.73
CG14024,1,-1.59 (active),-1.15,-3.04
CG14024,2,-1.6 (active),-3.12,-1.54
RpS4,1,1.58 (active),3.96,4.35
Camta,1,-1.2,0.237,0.0408
Camta,2,-0.206,-0.156,0.0127
Camta,3,0.314,-4.28,0.659
Camta,4,0.574,0.928,0.471
Camta,5,-0.809,-0.629,0.327
mRpL37,1,-0.571,0.298,-0.18
Zir,1,-3.56 (active),-6.95,1.46
